PubChem BioAssay AID624099 – ICCB-Longwood, 2012

- Screen: 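Knock-downs relieving repression by E2 of an HPV18 LCR luciferase reporter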 (primary screen)
- Cells: human C33A cervical carcinoma cells (HPV-negative) stably expressing BPV1 E2 and an HPV18 LCR luciferase reporter
- Reagent: siRNA pool against human genes, 40 nM
- Time to read-out: 72 h
- Measured: 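Per-well luciferase luminescence, z-scored on each plate against the plate mean and SD with control wells left out, then averaged across three replicate plates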
- Reading the numbers: mean z-score and z-score: higher = stronger reporter signal, weaker E2 silencing
- Call rule: 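Mean z ≥ 2 together with z ≥ 2 in two or more of the three replicates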
The whole screen tested about 21,000 reagents; shown is a random part of them. 497 of them (2.4%) count as active. 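Higher z means weaker E2 silencing; only reporter increases were scored, and knock-downs that hurt cell survival may mask genuine repressor factors.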

RHOT1 (ras homolog family member T1) scored mean z-score -1.15; z-score, replicate A = -1.34; z-score, replicate B = -1.31; z-score, replicate C = -0.81; inactive. Depletion of CEP250 (centrosomal protein 250) came out at: mean z-score 0.43; z-score, replicate A = -0.02; z-score, replicate B = 0.57; z-score, replicate C = 0.72; inactive. After knock-down of RNF20 (ring finger protein 20) the results were mean z-score 0.45; z-score, replicate A = 0.34; z-score, replicate B = 0.85; z-score, replicate C = 0.16; inactive. Depletion of IMPA2 (inositol monophosphatase 2) came out at: mean z-score -0.81; z-score, replicate A = -1.03; z-score, replicate B = -0.7; z-score, replicate C = -0.7; inactive. Depletion of COL6A6 (collagen type VI alpha 6 chain) gave: mean z-score -0.04; z-score, replicate A = -0.04; z-score, replicate B = -0.04; z-score, replicate C = -0.04; inactive. ACVR2A (activin A receptor type 2A) showed mean z-score -0.53; z-score, replicate A = -0.79; z-score, replicate B = -0.61; z-score, replicate C = -0.2; inactive.

After knock-down of SYNE4 (spectrin repeat containing nuclear envelope family member 4), the screen gave mean z-score -0.18; z-score, replicate A = -0.18; z-score, replicate B = -0.24; z-score, replicate C = -0.12; inactive. Knock-down of UGGT1 (UDP-glucose glycoprotein glucosyltransferase 1) resulted in: mean z-score 0.27; z-score, replicate A = 0.78; z-score, replicate B = 0.29; z-score, replicate C = -0.27; inactive. Knock-down of TTLL7 (tubulin tyrosine ligase like 7) came out at: mean z-score 0.85; z-score, replicate A = 1.28; z-score, replicate B = 0.52; z-score, replicate C = 0.75; inactive. With knock-down of FAM13C (family with sequence similarity 13 member C), the record shows mean z-score 1.04; z-score, replicate A = 1.31; z-score, replicate B = 1.01; z-score, replicate C = 0.8; inactive. Against PCDHGB1 (protocadherin gamma subfamily B, 1) the deposit lists mean z-score -0.83; z-score, replicate A = -0.99; z-score, replicate B = -0.93; z-score, replicate C = -0.56; inactive. LOC389858 (retired record) gave mean z-score 0.49; z-score, replicate A = 0.24; z-score, replicate B = 0.47; z-score, replicate C = 0.76; inactive.

FAM187B (family with sequence similarity 187 member B) gave mean z-score 1.3; z-score, replicate A = 1.56; z-score, replicate B = 0.78; z-score, replicate C = 1.56; inactive. RAB7A (RAB7A, member RAS oncogene family) showed mean z-score 0.85; z-score, replicate A = 0.62; z-score, replicate B = 0.95; z-score, replicate C = 0.99; inactive.

Laid out differently: 2 of the entries above.
| gene | mean z-score | z-score, replicate A | z-score, replicate B | z-score, replicate C | Outcome |
| --- | --- | --- | --- | --- | --- |
| IMPA2 (inositol monophosphatase 2) | -0.81 | -1.03 | -0.7 | -0.7 | inactive |
| COL6A6 (collagen type VI alpha 6 chain) | -0.04 | -0.04 | -0.04 | -0.04 | inactive |
